Pooled drug test results. Numbers come from NIAID ChemDB, via PubChem.

All rows: whole-cell or culture tests; agent: Human cytomegalovirus

ECn: concentration that inhibits the pathogen or its effect by n%. An empty or dashed field is not shown. Neighbouring rows are from separate reports.

compound | strain or isolate | read-out | read by | cells | result
Nc1nc2c(ncn2COC(CO)CO)c(=O)[nH]1 | BT1943 | EC50 | plaque count | WI-38 | 1.1 µM
CCCCCCCC/C=C\CCCCCCCOCCCOP1(=O)CO[C@@H](Cn2ccc(N)nc2=O)CO1 | AD169 | EC50 | plaque count | HFF | 0.0025 µM
CC(C)Nc1nc2cc(Cl)c(Cl)cc2n1[C@@H]1O[C@@H](CO)[C@H](O)[C@H]1O | - | EC50 | plaque count | HFF | >100 µM
Cc1c(S(=O)(=O)c2ccc(Cl)cc2)c(NC(=O)C(F)(F)F)n(Cc2ccccc2)c1C | AD169 | EC50 | cytopathic effect | HEL | 1.3 µg/mL
Nc1nc(=S)n([C@@H]2O[C@H](CO)[C@@H](O)[C@@H]2O)cc1/C=C/Br | T-137 | EC50 | plaque count | MRC-5 | >213 µM
Nc1ccn(C[C@H]2COP(=O)(O)CO2)c(=O)n1 | AD169 | EC50 | plaque count | MRC-5 | 0.31 µM
O=c1[nH]c(=O)n([C@H]2C[C@H](O)[C@@H](CO)O2)cc1C(O)C(Cl)I | AD169 | EC50 | plaque count | HFF | >231 µM
O=c1[nH]c(=O)n([C@@H]2O[C@H](CO)[C@@H](O)[C@@H]2O)cc1/C=C/Br | AD169 | EC50 | plaque count / crystal violet | HEL | 69.9 µg/mL
Cc1c(Br)cc(Br)c2ncc(CSCc3ccc(Cl)c(Cl)c3)n12 | AD169 | EC50 | plaque count | HEL | >5 µg/mL
OC[C@H]1O[C@H](c2c(Cl)ccc3nc(Cl)cn23)[C@H](O)[C@@H]1O | - | EC50 | plaque count | - | >100 µM
Nc1ccn(C[C@@H](CO)OCP(=O)(O)O)c(=O)n1 | DAVIS | EC50 | plaque count | HELF | 0.28 µM
CNc1nc2cc(Cl)c(Cl)cc2n1[C@@H]1O[C@@H](CO)[C@H](O)[C@H]1O | - | EC50 | plaque count | HFF | >100 µM
CC1=C[C@H](n2cnc3c(N)ncnc32)C[C@@]1(CO)c1ccccc1 | AD169 | EC50 | cytopathic effect | HEL | >100 µg/mL
CC1(C)OC2C(O1)[C@H](c1c(Cl)ccc3nc(Cl)cn13)O[C@@H]2CO | - | EC50 | plaque count | - | >100 µM
Cn1cc(C(=O)NCc2ccc(Cl)cc2)c(=O)c2cc(/C=C\CO)cc(F)c21 | AD169 | EC50 | plaque count | VERO | 0.5 µM
CN(C)c1cccc2c(S(=O)(=O)Nc3ccc(NC(=O)C(C)(C)CO)cc3)cccc12 | WILD TYPE | EC50 | plaque count | - | 0.44 µM
O=c1ccn([C@@H]2C[C@](O)(CO)CO2)c(=O)[nH]1 | AD169 | EC50 | - | HFF | >100 µM
Nc1nc2c(ncn2COC(CO)CO)c(=O)[nH]1 | RCL-1 (UL97 G594A UL54 S545L) | EC50 | ELISA | MRC-5 | 14.5 µM
Cc1cc(C)cc(Cn2c(=O)ccn(Cc3ccsc3)c2=O)c1 | AD169 | EC50 | - | - | 23 µM
CC(C)(C(=O)O)C(=O)Nc1ccc(NS(=O)(=O)c2cccc3c(N)cccc23)cc1 | DAVIS | EC50 | cytopathic effect | Human embryonic lung fibroblasts | 27.4 µM
Nc1nc2c(ncn2COC(CO)CO)c(=O)[nH]1 | AD169 | EC50 | cytopathic effect | HFF | 1.8 µM
Nc1ccn(C[C@@H](CO)OCP(=O)(O)O)c(=O)n1 | Isolate Helebrand (wild type) | EC50 | plaque count | HFF | 0.81 µM
Nc1nc(NC2CC2)c2ncn(C=C3CC3CO)c2n1 | EC | EC50 | plaque count | HFF | 2.2 µM
C=CCn1ccc(=O)n(Cc2cc(C)cc(C)c2)c1=O | AD169 | EC50 | - | - | >190 µM
CC(C)[C@H](NC(=O)CN)C(=O)OCC(COC(=O)[C@@H](NC(=O)CN)C(C)C)OCn1cnc2c(=O)[nH]c(N)nc21 | - | EC50 | plaque count | HFF | 3.6 µM
OC[C@H]1O[C@@H](c2cccc3nccn23)[C@H](O)[C@@H]1O | - | EC50 | plaque count | - | >100 µM
CCOC(=O)Cn1ccc(=O)n(Cc2cc(C)cc(C)c2)c1=O | AD169 | EC50 | - | - | >160 µM
O=C(O)P(=O)(O)O | Isolate Helebrand (wild type) | EC50 | plaque count | HFF | 94.77 µM
Nc1n[nH]c(=O)c2c1ncn2[C@@H]1O[C@H](CO)[C@@H](O)[C@H]1O | - | EC50 | plaque count | HFF | 29 µM
Nc1ncnc2c1c(Br)cn2COC(CO)CO | TOWNE | EC50 | virus yield | HFF | <1.9 µM
Cn1cc(C(=O)NCc2ccc(Cl)cc2)c(=O)c2cc(CN3CCOCC3)ccc21 | GR | EC50 | plaque count | HFF | 0.7 µM
Cc1cn([C@@H]2OC(O[Si](C)(C)C(C)(C)C)C3(OS(=O)(=O)C=C3NCCC(=O)OCc3ccccc3)C2O[Si](C)(C)C(C)(C)C)c(=O)n(C)c1=O | DAVIS | EC50 | plaque count | HEL | >400 µM
Cc1ccc(S(=O)(=O)N2CCN(c3cc(=O)n(Cc4cc(C)cc(C)c4)c(=O)n3CC#N)CC2)cc1 | AD169 | EC50 | - | - | >99 µM
Cn1cc(C(=O)NCc2ccc(Cl)cc2)c(=O)c2cc(CN3CCOCC3)ccc21 | AD169 | EC50 | plaque count | VERO | 0.94 µM
CCCCCCCCCCCCOCCCOP1(=O)CO[C@@H](Cn2ccc(N)nc2=O)CO1 | AD169 | EC50 | plaque count | HFF | 0.0065 µM
Cc1cc(C)cc(Cn2c(=O)ccn(Cc3ccco3)c2=O)c1 | AD169 | EC50 | - | - | >64 µM
NC(=S)N/N=C/c1ccc(Br)cc1F | AD169 | EC90 | cytopathic effect | Human foreskin fibroblasts | >300 µM
[O-][n+]1onc2ncnc(N3CC[N+]4(CC3)CC[N+]3(CCN(c5ncnc6no[n+]([O-])c56)CC3)CC4)c21 | - | EC50 | plaque count | MRC-5 | 12.3 µM
OC[C@H]1O[C@@H](c2c(Cl)ccc3nc(Cl)cn23)[C@H](O)[C@@H]1O | - | EC50 | plaque count | - | >100 µM
COC(c1cn([C@H]2C[C@H](O)[C@@H](CO)O2)c(=O)[nH]c1=O)C(Br)I | AD169 | EC50 | plaque count | HFF | >204 µM
OC[C@H]1O[C@@H](n2c(Cl)nc3cc(Cl)c(Cl)cc32)[C@H](O)[C@@H]1O | AD169 | EC50 | plaque count | MRC-5 | 2.8 µM
Nc1nc2c(ncn2COC(CO)CO)c(=O)[nH]1 | TOWNE | EC50 | virus yield | - | <0.4 µM
CC1(C)OCC2(CO[C@H](n3ccc(NC(=O)c4ccccc4)nc3=O)C2)O1 | AD169 | EC50 | - | HFF | >100 µM
Nc1nc2c(ncn2COC(CO)CO)c(=O)[nH]1 | TOWNE | EC50 | plaque count | HFF | 7.4 µM
Cc1cccc(CSCc2cnc3c(Br)cc(Br)c(C)n23)c1 | DAVIS | EC50 | plaque count | HEL | >20 µg/mL
OCC(CO)OCn1cc(Cl)c2c(NO)ncnc21 | TOWNE | EC50 | virus yield | HFF | <24 µM
Cc1ccc(Cn2c(N)c(C#N)c3c(N)ncnc32)cc1 | TOWNE | EC50 | plaque count | HFF | 0.8 µM
Nc1nc2c(ncn2C=C2CC2CO)c(=O)[nH]1 | C8706/13-1-1 | EC50 | plaque count | HFF | 12 µM
Nc1ccn([C@@H]2C=C(CO)[C@@H](O)[C@H]2O)c(=O)n1 | DAVIS | EC50 | plaque count | HEL | 0.2 µg/mL
CCCCCCCCCCCCCCCCCCOCCOP1(=O)CO[C@@H](Cn2ccc(N)nc2=O)CO1 | AD169 | EC50 | plaque count | HFF | 0.0427 µM
CC1(C)OCC(CO)(CC(O)CO)O1 | AD169 | EC50 | - | HFF | >100 µM
COC(=O)[C@H](C)NP(=O)(OC[C@H]1C/C1=C/n1cnc2c(=O)[nH]c(N)nc21)Oc1ccccc1 | AD169 | EC50 | plaque count | HFF | 25 µM
CC(=O)OC(C(C)C(C)C(C)(C)O)C1OC12C(O)CC1C3CCC4CC(=O)CCC4C3CCC12CO | - | EC50 | MTT | - | 6 µg/mL
CCCCCCCCCCCCCCCCCCCCOP1(=O)CO[C@@H](Cn2ccc(N)nc2=O)CO1 | AD169 | EC50 | plaque count | HFF | 0.014 µM
CCc1cn([C@H]2C[C@H](O)[C@@H](CO)O2)c(=S)nc1N | T-137 | EC50 | plaque count | MRC-5 | >277.4 µM
Nc1nc2c(ncn2COC(CO)CO)c(=O)[nH]1 | Isolate Helebrand (resistant) | EC50 | plaque count | HFF | 2.93 µM
N#CC1C(c2ccc(Cl)cc2)Nc2ccccc2S1(=O)=O | AD169 | EC50 | cytopathic effect | HEL | 3.1 µg/mL
CCCCCCCc1cc2cnc(OC3CCCC3)nc2o1 | DAVIS | EC50 | - | - | 3 µM
CC1=C[C@H](n2ccc(N)nc2=O)C[C@@]1(CO)c1ccccc1 | AD169 | EC50 | cytopathic effect | HEL | >100 µg/mL
CC(C)[C@H](N)C(=O)N[C@H](C(=O)OCC(COC(=O)[C@@H](NC(=O)[C@@H](N)C(C)C)C(C)C)OCn1cnc2c(=O)[nH]c(N)nc21)C(C)C | - | EC50 | plaque count | HFF | 4 µM
Cc1cc(C)cc(Cn2c(=S)ccn(CC(c3ccccc3)c3ccccc3)c2=O)c1 | AD169 | EC50 | - | - | >120 µM
OC[C@H]1O[C@H](c2c(Cl)c(Cl)cc3nc(Cl)cn23)[C@H](O)[C@@H]1O | - | EC50 | plaque count | - | >100 µM
Nc1ncnc2c1ncn2C=C1CC1CO | AD169 | EC50 | plaque count | - | 1.2 µM
Cc1oc(NC(=O)C(F)(F)F)c(S(=O)(=O)c2ccc(Cl)cc2)c1C | DAVIS | EC50 | cytopathic effect | HEL | 10 µg/mL
Nc1ccn(C[C@@H](CO)OCP(=O)(O)O)c(=O)n1 | C8805/37-1-1 (drug-resistant mutant) | EC50 | plaque count | MRC-5 | 0.84 µM
CCCc1cn([C@H]2C[C@H](O)[C@@H](CO)O2)c(=S)nc1N | AD169 | EC50 | plaque count | MRC-5 | >277.4 µM
OC[C@H]1O[C@@H](n2c(Cl)nc3cc4cc(Cl)c(Cl)cc4cc32)[C@H](O)[C@@H]1O | - | EC50 | plaque count | - | 16 µM
O=C1O[C@H](CO)C[C@]1(O)CO | AD169 | EC50 | - | HFF | >100 µM
O=C(NCc1ccc(Cl)cc1)c1c[nH]c2ccc(C#CCO)cc2c1=O | 9 isolates | EC50 | plaque count | - | 1.3 µM
Cc1c(Br)cc(Br)c2ncc(CSCc3ccc(Cl)cc3Cl)n12 | AD169 | EC50 | plaque count | HEL | >5 µg/mL
Nc1nc2c(ncn2COC(CO)CO)c(=O)[nH]1 | - | EC50 | - | - | 5.6 µg/mL
Nc1ncnc2c1c(I)cn2COCCO | TOWNE | EC50 | - | - | 4.6 µM
N#CC1C(c2ccc(Cl)cc2)Nc2sccc2S1(=O)=O | DAVIS | EC50 | cytopathic effect | HEL | 9 µg/mL
CCCCCCCCCCCCCCCCOCCCOP1(=O)CO[C@@H](Cn2ccc(N)nc2=O)CO1 | AD169 | EC50 | plaque count | HFF | 0.0427 µM
COC(c1cn([C@H]2C[C@H](O)[C@@H](CO)O2)c(=O)[nH]c1=O)C(Cl)Br | AD169 | EC50 | plaque count | HFF | >250 µM
CCc1cn([C@@H]2O[C@H](CO)[C@@H](O)[C@@H]2O)c(=S)[nH]c1=O | T-137 | EC50 | plaque count | MRC-5 | >213 µM
Cc1c(Br)cc(Br)c2ncc(CSCc3ccccc3)n12 | AD169 | EC50 | plaque count | HEL | >50 µg/mL
Nc1nc2c(ncn2COCCO)c(=O)[nH]1 | AD169 | EC50 | plaque count | HFF | 11 µM

Repeating the final 6 entries:

N#CC1C(c2ccc(Cl)cc2)Nc2sccc2S1(=O)=O ; strain or isolate: DAVIS ; read-out: EC50 ; read by: cytopathic effect ; cells: HEL ; result: 9 µg/mL
CCCCCCCCCCCCCCCCOCCCOP1(=O)CO[C@@H](Cn2ccc(N)nc2=O)CO1 ; strain or isolate: AD169 ; read-out: EC50 ; read by: plaque count ; cells: HFF ; result: 0.0427 µM
COC(c1cn([C@H]2C[C@H](O)[C@@H](CO)O2)c(=O)[nH]c1=O)C(Cl)Br ; strain or isolate: AD169 ; read-out: EC50 ; read by: plaque count ; cells: HFF ; result: >250 µM
CCc1cn([C@@H]2O[C@H](CO)[C@@H](O)[C@@H]2O)c(=S)[nH]c1=O ; strain or isolate: T-137 ; read-out: EC50 ; read by: plaque count ; cells: MRC-5 ; result: >213 µM
Cc1c(Br)cc(Br)c2ncc(CSCc3ccccc3)n12 ; strain or isolate: AD169 ; read-out: EC50 ; read by: plaque count ; cells: HEL ; result: >50 µg/mL
Nc1nc2c(ncn2COCCO)c(=O)[nH]1 ; strain or isolate: AD169 ; read-out: EC50 ; read by: plaque count ; cells: HFF ; result: 11 µM